A mixed list of measured activities; the numbers were collected in NIAID ChemDB.

Common to all: growth or infection tests; agent: Mycobacterium tuberculosis

Two numbers with a dash give a range or band. Conditions beyond the fields shown may differ between rows. MIC bound: limit read from a one-dose screen. Percent inhibition refers to the dose given; in toxicity tests it is the harm to the cells. ECn: concentration that inhibits the pathogen or its effect by n%. MIC50, MIC90 and the like: level of inhibition, or share of isolates inhibited. An empty or dashed field is not shown.

smiles | strain or isolate | method | read-out | tested at | mutations | value
CCOC(=O)CSc1ccnc(C#N)c1 | 331/81 | - | MIC | - | - | 500 µM
COc1ccc(Nc2nnc(-c3ccc(NC(=O)c4ccc(OC)cc4)cc3)o2)cc1 | H37Rv | - | inhibition | 6.25 µg/mL | - | 0%
Nc1c(-c2ccccc2)c2cc(Cl)ccc2[nH]c1=O | H37Rv | - | inhibition | 6.25 µg/mL | - | 0%
Cc1c(NC(=O)CCl)c(=O)n(-c2ccccc2)n1C | H37Rv | BACTEC | inhibition | 12.5 µg/mL | - | 2%
CC(Oc1cccc([N+](=O)[O-])c1)C(=O)N/N=C1\CCOc2ccccc21 | H37Rv | - | inhibition | 12.5 µg/mL | - | 50–64%
Cc1ccc(C2CC(c3cccs3)C3=C(O2)C(=O)c2ccccc2C3=O)cc1 | H37Rv | - | MIC | - | - | >100 µg/mL
Cc1cc(Cl)[nH]c2ccc3c(=O)c(C(=O)NN=Cc4ccccc4O)cnc3c12 | H37Rv | - | MIC | - | - | 200 µg/mL
COc1cc(CNc2ccccc2B2OC(C)(C)C(C)(C)O2)ccc1O | H37Ra | resazurin | MIC90 | - | - | 200 µM
Cc1ccc(C2CC(c3ccc([N+](=O)[O-])cc3)C3=C(O2)C(=O)c2ccccc2C3=O)cc1 | H37Rv | - | MIC | - | - | >100 µg/mL
COc1ccc(C(=O)Nc2ccc(C(=O)N/N=C/c3ccc([N+](=O)[O-])o3)cc2)cc1 | H37Rv | - | inhibition | 6.25 µg/mL | - | 0%
C=C1C(=O)[C@@]23[C@H](O)C[C@@H]4C(C)(C)CCC[C@@]4(C)[C@@H]2CC[C@@H]1[C@H]3O | H37Rv | resazurin / absorbance | MIC | - | - | 6.25–12.5 µg/mL
COc1ccc(C(=O)Nc2ccc(C(=O)N/N=C3\SCC(=O)N3C)cc2)cc1 | H37Rv | - | inhibition | 6.25 µg/mL | - | 0%
NNC(=O)CNC(=O)Cc1ccccc1 | H37Rv | BACTEC | inhibition | 12.5 µg/mL | - | 1%
Fc1cccc(CNCC2CCCC(CNCc3cccc(F)c3)C2)c1 | H37Rv | - | inhibition | 20 µM | - | 0%
N#CCCSc1cc(C(N)=S)ccn1 | 331/81 | - | MIC | - | - | 31 µM
CO[C@H]1/C=C/O[C@@]2(C)Oc3c(C)c(O)c4c(O)c(c5c(c4c3C2=O)NC2(CCN(CC(C)C)CC2)N=5)=NC(=O)/C(C)=C\C=C\[C@H](C)[C@H](O)[C@@H](C)[C@@H](O)[C@@H](C)[C@H](OC(C)=O)[C@@H]1C | 3181-5 (RIF-S) | - | MBC | - | - | 0.125 µg/mL
COc1cc(CNC(=O)CCCC/C=C/C(C)C)ccc1O | H37Ra | resazurin | EC50 | - | - | 110 µM
CCN(CC)CCCNc1ccc2ncn3c4ccc(O)cc4c(=O)c1c23.Cl | H37Rv | BACTEC | inhibition | 12.5 µg/mL | - | 52%
N#Cc1cc(SCC(=O)NN)ccn1 | 331/81 | - | MIC | - | - | 1000 µM
Cc1c(CN2CCN(C)CC2)cc(-c2ccc(F)cc2)n1-c1ccccc1Cl | - | - | MIC | - | - | 2 µg/mL
c1ccc(CNCC2CCCC(CNCc3ccccc3)C2)cc1 | H37Rv | - | inhibition | 20 µM | - | 0%
c1ccc2c(c1)-c1ccccc1C21CCc2nc3c(nc2C1)CCC1(C3)c2ccccc2-c2ccccc21 | H37Rv | BACTEC | inhibition | 12.5 µg/mL | - | -2%
C=C1C(=O)[C@@]23CC[C@@H]4[C@@](C)(COC(C)=O)CCC[C@@]4(C)[C@@H]2[C@@H](O)C[C@@H]1C3 | H37Rv | resazurin / absorbance | MIC | - | - | >50 µg/mL
Cc1c(CN2CCN(C)CC2)cc(-c2ccccc2)n1-c1ccccc1Cl | - | - | MIC | - | - | >16 µg/mL
CCCCCCCCc1ccc(NCc2ccc(O)c(OC)c2)cc1 | H37Ra | resazurin | EC50 | - | - | 70.5 µM
CC(C)(C)OC(=O)N1N=NC2C1C1CC(OCc3ccccc3)(OCc3ccccc3)C2O1 | H37Rv | BACTEC | MIC bound | - | - | >12.5 µg/mL
CCCCCCCCCNCc1ccc(O)c(OC)c1 | H37Ra | resazurin | EC50 | - | - | 31.7 µM
Cc1c(-[n+]2ccccc2)c(=O)[nH]c2ccccc12 | H37Rv | - | MIC | - | - | >6.25 µg/mL
Nc1cc(=O)[nH][nH]1 | H37Rv | BACTEC | MIC bound | - | - | >12.5 µg/mL
O=[N+]([O-])c1cccc(CNCC2CCCC(CNCc3cccc([N+](=O)[O-])c3)C2)c1 | H37Rv | - | inhibition | 20 µM | - | 0%
Cc1cc(Cl)[nH]c2ccc3c(=O)c(C(=O)NN=Cc4cccc([N+](=O)[O-])c4O)cnc3c12 | H37Rv | - | MIC | - | - | 62.5 µg/mL
COc1ccc(-n2sc3ncc(-c4ccccc4)cc3c2=O)cc1 | H37Rv | BACTEC | MIC | - | - | 6.25 µg/mL
CCCCc1ccc(NCc2ccc(O)c(OC)c2)cc1 | H37Ra | resazurin | MIC90 | - | - | >200 µM
COc1ccc(C2CCC3=C(O2)C(=O)c2ccccc2C3=O)cc1 | H37Rv | - | MIC | - | - | >100 µg/mL
CCS(=O)(=O)c1nnc(-c2ccc([N+](=O)[O-])o2)s1 | H37Rv | - | MIC | - | - | 6.25 µg/mL
NC(=O)c1cnccn1 | ATCC 27294 | resazurin | MIC | - | - | 203 µM
CO[C@H]1/C=C/O[C@@]2(C)Oc3c(C)c(O)c4c(O)c(c(/C=N/N5CCN(C)CC5)c(O)c4c3C2=O)NC(=O)/C(C)=C\C=C\[C@H](C)[C@H](O)[C@@H](C)[C@@H](O)[C@@H](C)[C@H](OC(C)=O)[C@@H]1C | H37Rv | resazurin | MIC | - | - | 2 µg/mL
Fc1cc(F)cc(CNCC2CCCC(CNCc3cc(F)cc(F)c3)C2)c1 | H37Rv | - | inhibition | 20 µM | - | 0%
C=C1C(=O)[C@@]23CC[C@@H]4[C@@](C)(CO)CCC[C@@]4(C)[C@@H]2CC[C@@H]1C3 | H37Rv | resazurin / absorbance | MIC | - | - | 25–50 µg/mL
Cc1c(CN2CCSCC2)cc(-c2ccc(F)cc2)n1-c1ccccc1Cl | - | - | MIC | - | - | 4 µg/mL
COc1cc(/C=C/c2cccs2)oc(=O)c1 | H37Rv | BACTEC | inhibition | 12.5 µg/mL | - | -26%
Cc1ccc(C2CCC3=C(O2)C(=O)c2ccccc2C3=O)cc1 | H37Rv | - | MIC | - | - | >100 µg/mL
CC(=O)Nc1c(-c2ccccc2)c2cc(Cl)ccc2n(C)c1=O | H37Rv | - | inhibition | 6.25 µg/mL | - | 0%
O=C1C2=C(OC(c3ccc(F)cc3)CC2)C(=O)c2ccccc21 | H37Rv | - | MIC | - | - | >100 µg/mL
O=C1CC(SC(=S)N2CCCCC2)C(=O)N1c1ccccc1 | H37Rv | BACTEC | inhibition | 128 µg/mL | - | 100%
Cn1c(=O)c(N)c(-c2ccccc2)c2cc(Cl)ccc21 | H37Rv | - | MIC | - | - | >6.25 µg/mL
O=C(NN=C1CCCCC1)c1ccncc1 | Isoniazid-resistant | - | MIC | - | - | >0.75 µg/mL
Cc1c(CN2CCSCC2)cc(-c2ccc(F)cc2)n1-c1ccc(Cl)cc1 | - | - | MIC | - | - | 2 µg/mL
CCS(=O)c1nnc(-c2ccc([N+](=O)[O-])o2)s1 | H37Rv | - | inhibition | 6.25 µg/mL | - | 100%
N#CCCCSc1ccnc(C(=N)N)c1 | 331/81 | - | MIC | - | - | 1000 µM
Cc1cc(N)c2ccccc2[n+]1CCCCCCCCCC[n+]1c(C)cc(N)c2ccccc21 | - | broth dilution | EC50 | - | - | 0.3 µg/mL
C=CCN=C(N=Nc1c(O)[nH]c2ccc(Br)cc12)SCC(=O)c1ccc(Br)cc1 | H37Rv | - | MIC | - | - | 12.5 µg/mL
CO/N=C(\C(=O)N[C@@H]1C(=O)N2C(C(=O)O)=C(CSc3nc(=O)c(=O)[nH]n3C)CS[C@H]12)c1csc(N)n1 | 9 strains (MDR) | - | MIC50 | - | - | 128 µg/mL
CSC(=S)N/N=C/c1cccc(C)n1 | RMP-R | - | MIC | - | - | >12.8 µg/mL
CC1(C)S[C@@H]2[C@H](NC(=O)[C@H](N)c3ccc(O)cc3)C(=O)N2[C@H]1C(=O)O | 24 strains (drug-susceptible) | - | MIC50 | - | - | 128 µg/mL
COc1ccc(C(=O)Nc2ccc(-c3nnc(Nc4ccccc4)o3)cc2)cc1 | H37Rv | - | inhibition | 6.25 µg/mL | - | 7%
CC(=O)O[C@@H]1[C@@H](O)C2=C3[C@]4(C)[C@@H]1C(C)(C)C(=O)C[C@@H]4[C@]3(O)[C@H](OC(C)=O)[C@@]1(C[C@H]1C)C2=O | H37Rv | BACTEC | MIC bound | - | - | >12.5 µg/mL
Cc1ccc(C2CC(c3ccc([N+](=O)[O-])cc3)C3=C(O2)c2ccccc2C(=O)C3=O)cc1 | H37Rv | - | MIC | - | - | 2.5 µg/mL
C[C@H]1NCc2cc(-c3ccc4c(=O)c(C(=O)O)cn(C5CC5)c4c3OC(F)F)ccc21 | 10 strains | - | MIC90 | - | - | 1 µg/mL
N#CCSc1cc(C#N)ccn1 | 331/81 | - | MIC | - | - | 31 µM
C=C1C(=O)[C@]23[C@H](OC(C)=O)[C@H]1CC[C@H]2[C@@]1(C)[C@H](C[C@H]3OC(C)=O)C(C)(C)CC[C@H]1OC(C)=O | H37Rv | resazurin / absorbance | MIC | - | - | 1.56–3.125 µg/mL
Cn1c(-c2ccc(Br)cc2)cs/c1=N\N=C1/C(=O)Nc2ccccc21.O | H37Rv | - | MIC | - | - | >12.5 µg/mL
CCCCCCCCC/C=C/C=C/C(=O)NCC(=O)NC1C(O)C(O)C(Nc2ncnc3nc[nH]c23)OC1C(O)CO | H37Rv | resazurin | inhibition | 6.25 µg/mL | - | 17%
CCOC(=O)CSc1ccnc(C(N)=S)c1 | 331/81 | - | MIC | - | - | 1000 µM
COc1cc(C=NNC(=O)c2cnc3c(ccc4[nH]c(Cl)cc(C)c43)c2=O)ccc1O | H37Rv | - | MIC | - | - | 500 µg/mL
O=[N+]([O-])c1ccc(CS(=O)(=O)c2nnc(-c3ccc([N+](=O)[O-])o3)s2)cc1 | H37Rv | - | inhibition | 6.25 µg/mL | - | 79%
C=C1C(=O)[C@@]23[C@H](O)C[C@@H]4[C@@](C)(COC(C)=O)CCC[C@@]4(C)[C@@H]2CC[C@@H]1[C@H]3O | H37Ra | resazurin / absorbance | MIC | - | - | 25–50 µg/mL
Cl.O=C(COc1ccc(Cl)cc1)NN1CCCCCC1 | H37Rv | BACTEC | MIC bound | - | - | >12.5 µg/mL
Cc1ccc(C)c(CSc2nnc(-c3ccc([N+](=O)[O-])o3)s2)c1 | H37Rv | - | inhibition | 6.25 µg/mL | - | 29%
Cc1c(C(=O)O)s/c(=N\N=C2/C(=O)Nc3ccccc32)n1-c1ccccc1.O | H37Rv | - | MIC | - | - | >12.5 µg/mL
Cn1nc(NC(=O)c2cc(NC(=O)Nc3cc(C(=O)Nc4cc(C(=O)Nc5ccc6cc(S(=O)(=O)O)cc(S(=O)(=O)O)c6c5)n(C)n4)n(C)n3)nn2C)cc1C(=O)Nc1ccc2cc(S(=O)(=O)O)cc(S(=O)(=O)O)c2c1 | H37Rv | BACTEC | MIC bound | - | - | >12.5 µg/mL
COc1ccc(C(=O)Nc2ccc(C(=O)NNC(=S)Nc3ccc(C)cc3)cc2)cc1 | H37Rv | - | inhibition | 6.25 µg/mL | - | 0%
CCOC(=O)c1sc(C(=O)O)cc1-c1cccs1 | H37Rv | BACTEC | inhibition | 12.5 µg/mL | - | 0%
NNC(=O)c1ccncc1 | 2219 | - | MIC | - | - | >4 µg/mL
CCCCCCc1cc(C(=O)N/N=C/c2ccc(O)c(OC)c2)c2ccccc2n1 | H37Rv | BACTEC | inhibition | 12.5 µg/mL | - | -6%
NC(=O)c1ccc(CN(C2CC2)S(=O)(=O)c2ccccc2F)cc1 | Clinical isolate | resazurin / fluorescence | MIC | - | Rifampicin-resistant | 5 µM
CC1CC/C(=N/O)CCCCC(=O)O1 | H37Rv | BACTEC | inhibition | 12.5 µg/mL | - | -4%
CCn1c(SCC(=O)N=Nc2c(O)[nH]c3ccc(Br)cc23)nc2ccccc2c1=O | H37Rv | - | MIC | - | - | >12.5 µg/mL
COC1OC2COC(c3ccccc3)OC2C2OC(=S)OC12 | H37Rv | BACTEC | MIC bound | - | - | >12.5 µg/mL
CCOc1cc(C2SCC(=O)N2NC(=O)c2ccc(NC(=O)c3ccc(OC)cc3)cc2)ccc1O | H37Rv | - | inhibition | 6.25 µg/mL | - | 0%
COc1ccc(/C=N/NC(=O)c2cnc3[nH]c(=O)n(C)c(=O)c3c2)cc1 | H37Rv | resazurin | inhibition | 6.25 µg/mL | - | 8%
CCOC(=O)c1cnc2c(ccc3[nH]c(Cl)cc(C)c32)c1=O | H37Rv | - | MIC | - | - | 500 µg/mL
C[N+](C)(C)CC(=O)N/N=C/c1ccc(O)cc1O.[Cl-] | H37Rv | BACTEC | MIC bound | - | - | >12.5 µg/mL
C=C1C[C@@]23CC[C@H]4[C@@](C)(CCC[C@]4(C)C(=O)O)[C@@H]2[C@@H](OC(C)=O)C[C@@H]1C3 | H37Rv | resazurin / absorbance | MIC | - | - | >50 µg/mL

The last 8 rows once more:

smiles | strain or isolate | method | read-out | tested at | mutations | value
CC1CC/C(=N/O)CCCCC(=O)O1 | H37Rv | BACTEC | inhibition | 12.5 µg/mL | - | -4%
CCn1c(SCC(=O)N=Nc2c(O)[nH]c3ccc(Br)cc23)nc2ccccc2c1=O | H37Rv | - | MIC | - | - | >12.5 µg/mL
COC1OC2COC(c3ccccc3)OC2C2OC(=S)OC12 | H37Rv | BACTEC | MIC bound | - | - | >12.5 µg/mL
CCOc1cc(C2SCC(=O)N2NC(=O)c2ccc(NC(=O)c3ccc(OC)cc3)cc2)ccc1O | H37Rv | - | inhibition | 6.25 µg/mL | - | 0%
COc1ccc(/C=N/NC(=O)c2cnc3[nH]c(=O)n(C)c(=O)c3c2)cc1 | H37Rv | resazurin | inhibition | 6.25 µg/mL | - | 8%
CCOC(=O)c1cnc2c(ccc3[nH]c(Cl)cc(C)c32)c1=O | H37Rv | - | MIC | - | - | 500 µg/mL
C[N+](C)(C)CC(=O)N/N=C/c1ccc(O)cc1O.[Cl-] | H37Rv | BACTEC | MIC bound | - | - | >12.5 µg/mL
C=C1C[C@@]23CC[C@H]4[C@@](C)(CCC[C@]4(C)C(=O)O)[C@@H]2[C@@H](OC(C)=O)C[C@@H]1C3 | H37Rv | resazurin / absorbance | MIC | - | - | >50 µg/mL